# Reference: PubChem BioAssay AID588499 (NMMLSC, 2011)
# Only a part is listed here, and it is no random draw. The source made the active and inactive calls. No stated cut-off is given here; in the data, active means inhibition above about 30%; inconclusive means no clear call, values can overlap the other calls; inactive means below that.
# Test system: Botulinum neurotoxin type A light chain protease (Clostridium botulinum A str. ATCC 3502)
# Test: blockers of BoNT/A LC substrate cleavage – biochemical, flow cytometry, MLPCN library, primary screen (AID 588499); further: plate controls were buffer without enzyme for full effect and enzyme alone for no effect
# Settings: multiplex microsphere protease substrate cleavage, at 10 µM, stronger effect = higher value
row,Compound,inhibition
1,CCCCn1nnnc1C(c1ccc(OC)cc1)N1CCC(n2c(=O)[nH]c3ccccc32)CC1 (configuration not stated),inactive: -0.6%
2,CCOC(=O)N1CCC(Nc2ccc(OC)cc2)CC1,inactive: -0.4%
3,COc1ccc(Cl)cc1C(=O)NCC1(N2CCOCC2)CCCCC1,inactive: -0.5%
4,O=C(NCC1(N2CCCCC2)CCCCC1)c1ccc(Cl)s1,inactive: -0.8%
5,N#CC1(Nc2ccccc2)CCN(Cc2ccccc2)CC1,inactive: 1.2%
6,O=C(OC1CN2CCC1CC2)C1c2ccccc2Oc2ccccc21 (configuration not stated),inactive: -0.5%
7,O=c1[nH]c2ccccc2n1C1CCN(C(c2cc3ccccc3o2)c2nnnn2C2CCCCC2)CC1 (configuration not stated),inactive: -0.1%
8,O=C(NCC1(N2CCOCC2)CCCCC1)c1cc2ccccc2o1,inactive: 0%
9,Cc1cc(C)cc(N(C(=O)c2ccccc2)C2CCN(C(=O)OC(C)(C)C)CC2)c1,inactive: -1.4%
10,O=C(NCC1(N2CCCCC2)CCCCC1)c1ccc(Cl)nc1,inactive: -0.1%
11,O=c1[nH]c2ccccc2n1C1CCN(C(c2ccccc2OC(F)(F)F)c2nnnn2C2CCCCC2)CC1 (configuration not stated),inactive: 0.3%
12,Cc1cccc(NC2(C#N)CCN(Cc3ccccc3)CC2)c1,inactive: 0.2%
13,CSc1ccccc1C(=O)NCC1(N2CCCCC2)CCCCC1,inactive: -3.2%
14,O=C(NCC1(N2CCCCC2)CCCCC1)c1cccs1,inactive: -0.8%
15,CCCCn1nnnc1C(CC)N1CCC(n2c(=O)[nH]c3ccccc32)CC1 (configuration not stated),inactive: 0.1%
16,CCCCn1nnnc1C(c1cccs1)N1CCC(n2c(=O)[nH]c3ccccc32)CC1 (configuration not stated),inactive: 0.2%
17,O=C(NCC1(N2CCCCC2)CCCCC1)c1ccc(=O)[nH]c1,inactive: -0.1%
18,CC(C)(C)OC(=O)N1CCC(N(C(=O)c2ccccc2)c2ccc(F)cc2)CC1,inactive: -4.2%
19,COc1ccc(C(=O)NCC2(N3CCCCC3)CCCCC2)c(OC)c1OC,inactive: 0.9%
20,CCC(c1nnnn1C1CCCC1)N1CCC(n2c(=O)[nH]c3ccccc32)CC1 (configuration not stated),inactive: 0.4%
21,COc1ccc(C(=O)NCC2(N3CCCCC3)CCCCC2)cc1,inactive: -5.1%
22,O=c1[nH]c2ccccc2n1C1CCN(C(c2cccc3ccccc23)c2nnnn2C2CCCC2)CC1 (configuration not stated),inactive: 1.2%

row,Compound,inhibition
1,CCOC(=O)N1CCC(Nc2cccc(C)c2)CC1,inactive: -1.9%
2,COc1cc(C(=O)NCC2(N(C)C)CCCCC2)ccc1OC(F)F,inactive: -0.7%
3,O=c1[nH]c2ccccc2n1C1CCN(C(c2ccccc2)c2nnnn2C2CCCCC2)CC1 (configuration not stated),inactive: 0%
4,COc1ccc(NC2CCN(CCc3ccccc3)CC2)c(OC)c1,inactive: -0.9%
5,CCOC(=O)N1CCC(Nc2ccc(F)cc2)CC1,inactive: 4.8%
6,CCCCn1nnnc1C(c1cc2ccccc2o1)N1CCC(n2c(=O)[nH]c3ccccc32)CC1 (configuration not stated),inactive: -0.3%
7,O=P1(N(CCCl)CCCl)SCCCS1,inactive: 0.1%
8,CCCCOc1ccc(C(=O)NCC2(N3CCOCC3)CCCCC2)cc1,inactive: -2.8%
9,O=C(NCC1(N2CCCCC2)CCCCC1)c1ccc(F)cc1,inactive: -0.1%
10,CCOc1ccc(C)cc1CN(CCCl)CCCl,inactive: 0.4%
11,O=C1CCN(Cc2ccccc2)CC1,inactive: 1.1%
12,CC(C)(C)n1nnnc1C(c1ccccc1)N1CCC(n2c(=O)[nH]c3ccccc32)CC1 (configuration not stated),inactive: 0.6%
13,CN1CCN(CCOC(=O)C(O)(c2ccccc2)c2ccccc2)CC1,inactive: 8.9%
14,CC(C)c1ccc(C(=O)NCC2(N3CCOCC3)CCCCC2)cc1,inactive: -2.3%
15,COc1ccc(NC2CCN(C(=O)OC(C)(C)C)CC2)cc1,inactive: -1.3%
16,CCCCn1nnnc1C(c1cccc2ccccc12)N1CCC(n2c(=O)[nH]c3ccccc32)CC1 (configuration not stated),inactive: -0.7%
17,COc1cc(C(=O)NCC2(N3CCCCC3)CCCCC2)ccc1OC(F)F,inactive: -2.3%
18,O=C(NCC1(N2CCOCC2)CCCCC1)c1cc(=O)[nH]c2ccccc12,inactive: -0.1%
19,O=C(NCC1(N2CCCCC2)CCCCC1)c1cccc(C(F)(F)F)c1,inactive: 3.8%
20,O=C(NCC1(N2CCCCC2)CCCCC1)c1cccc([N+](=O)[O-])c1,inactive: -0.5%
21,CSc1ccc(C(=O)NCC2(N3CCOCC3)CCCCC2)cc1,inactive: 2.2%
22,O=c1[nH]c2ccccc2n1C1CCN(C(c2ccccc2OC(F)(F)F)c2nnnn2C2CCCC2)CC1 (configuration not stated),inactive: -0.2%

row,Compound,inhibition
1,N#CC1(Nc2ccccc2)CCN(CCc2ccccc2)CC1,inactive: 0.1%
2,CCN1CCC(Nc2ccc(Cl)cc2)CC1,inactive: -2.7%
3,O=C(NCC1(N2CCCCC2)CCCCC1)c1ccc(OC(F)F)cc1,inactive: 1%
4,CC(C)(C)n1nnnc1C(c1ccccc1OC(F)(F)F)N1CCC(n2c(=O)[nH]c3ccccc32)CC1 (configuration not stated),inactive: 0.2%
5,CCCOc1ccc(C(=O)NCC2(N(C)C)CCCCC2)cc1OC,inactive: -2.8%
6,Cc1ccc(C(=O)NCC2(N(C)C)CCCCC2)o1,inactive: 0.3%
7,COc1ccc(C(c2nnnn2C2CCCC2)N2CCC(n3c(=O)[nH]c4ccccc43)CC2)cc1 (configuration not stated),inactive: 0.9%
8,CN1CCC(Nc2cccc(F)c2)CC1,inactive: 0.3%
9,O=C(NCC1(N2CCCCC2)CCCCC1)c1cncc(Br)c1,inactive: -0.4%
10,CCCCn1nnnc1C(c1ccnc2ccccc12)N1CCC(n2c(=O)[nH]c3ccccc32)CC1 (configuration not stated),inactive: -0.8%
11,CCC(c1nnnn1C(C)(C)C)N1CCC(n2c(=O)[nH]c3ccccc32)CC1 (configuration not stated),inactive: -0.6%
12,O=C(NCC1(N2CCOCC2)CCCCC1)c1cc(F)c(F)cc1Cl,inactive: -2.4%
13,COc1cc(OC)c(C(=O)NCC2(N(C)C)CCCCC2)cc1OC,inactive: -3.2%
14,CN(C)c1cccc(C(=O)NCC2(N3CCCCC3)CCCCC2)c1,inactive: 0.2%
15,COc1ccc(CN(CCCl)CCCl)cc1Cl,inactive: 0.1%
16,CCCCn1nnnc1C(c1ccccc1OC(F)(F)F)N1CCC(n2c(=O)[nH]c3ccccc32)CC1 (configuration not stated),inactive: -0.2%
17,CC(C)c1ccc(NC2CCN(C(=O)OC(C)(C)C)CC2)cc1,inactive: -1.4%
18,CCCCn1nnnc1C(c1cccc(OC)c1OC)N1CCC(n2c(=O)[nH]c3ccccc32)CC1 (configuration not stated),inactive: -1%
19,O=c1[nH]c2ccccc2n1C1CCN(C(c2cccs2)c2nnnn2C2CCCC2)CC1 (configuration not stated),inactive: 0.2%
20,O=C(OC1CN2CCC1CC2)C1c2ccccc2C=Cc2ccccc21 (configuration not stated),inactive: 0.5%
21,N/C(=N\O)c1c(N)no[n+]1[O-],inactive: 0.3%
22,COc1cccc(C(c2nnnn2C(C)(C)C)N2CCC(n3c(=O)[nH]c4ccccc43)CC2)c1OC (configuration not stated),inactive: -1.3%

row,Compound,inhibition
1,O=c1[nH]c2ccccc2n1C1CCN(C(c2ccnc3ccccc23)c2nnnn2C2CCCC2)CC1 (configuration not stated),inactive: 1.2%
2,COc1ccc(C(=O)NCC2(N3CCOCC3)CCCCC2)cc1OC,inactive: -0.5%
3,O=c1[nH]c2ccccc2n1C1CCN(C(c2cccs2)c2nnnn2C2CCCCC2)CC1 (configuration not stated),inactive: -0.3%
4,O=C(NCC1(N2CCOCC2)CCCCC1)c1cc(Br)ccc1Cl,inactive: 10%
5,COc1cc(C(=O)NCC2(N3CCOCC3)CCCCC2)cc(OC)c1C,inactive: 0%
6,CCCCn1nnnc1C(c1ccccc1)N1CCC(n2c(=O)[nH]c3ccccc32)CC1 (configuration not stated),inactive: -0.4%
7,CC(C)(C)n1nnnc1C(c1cccc2ccccc12)N1CCC(n2c(=O)[nH]c3ccccc32)CC1 (configuration not stated),inactive: 0.7%
8,Cc1cc(N(CCCl)CCCl)ccc1C=O,inactive: -0.2%
9,CCCN1CCC(Nc2cc(OC)cc(OC)c2)CC1,inactive: -1.1%
10,O=c1[nH]c2ccccc2n1C1CCN(C(c2ccccc2)c2nnnn2C2CCCC2)CC1 (configuration not stated),inactive: 0.2%
11,c1ccc(CN2CCC(Nc3ccccc3)CC2)cc1,inactive: -0.7%
12,CN(C)C1(CNC(=O)c2cccc(C#N)c2)CCCCC1,inactive: -1.5%
13,CC(C)(C)OC(=O)N1CCC(N(C(=O)c2ccccc2)c2ccc(Cl)cc2)CC1,inactive: -1%
14,N#Cc1ccc(C(=O)NCC2(N3CCCCC3)CCCCC2)cc1,inactive: -0.7%
15,CN(C)c1ccc(C(=O)NCC2(N3CCCCC3)CCCCC2)cc1,inactive: 0.1%
16,Cn1c(=O)[nH]cc(N(CCCl)CCCl)c1=O,inactive: 0.4%
17,O=C(NCC1(N2CCCCC2)CCCCC1)c1ccco1,inactive: 0.3%
18,CCN1CCC(Nc2cccc(F)c2)CC1,inactive: 1.1%
19,COc1ccc(C(c2nnnn2C2CCCCC2)N2CCC(n3c(=O)[nH]c4ccccc43)CC2)cc1 (configuration not stated),inactive: 0.2%
20,CC(C)(C)n1nnnc1C(c1ccnc2ccccc12)N1CCC(n2c(=O)[nH]c3ccccc32)CC1 (configuration not stated),inactive: -0.1%
21,Cc1ccccc1NC1(C#N)CCN(Cc2ccccc2)CC1,inactive: -0.2%
22,Cc1ccc(NC2(C#N)CCN(Cc3ccccc3)CC2)cc1,inactive: -0.4%

row,Compound,inhibition
1,Fc1ccccc1NC1CCN(Cc2ccccc2)CC1,inactive: 0.9%
2,Cc1ccc(C(=O)NCC2(N3CCCCC3)CCCCC2)o1,inactive: -2.1%
3,COc1cc(OC)cc(C(=O)NCC2(N3CCCCC3)CCCCC2)c1,inactive: 1%
4,O=c1[nH]c2ccccc2n1C1CCN(C(c2ccnc3ccccc23)c2nnnn2C2CCCCC2)CC1 (configuration not stated),inactive: 0%
5,CCC(c1nnnn1C1CCCCC1)N1CCC(n2c(=O)[nH]c3ccccc32)CC1 (configuration not stated),inactive: 0.4%
6,COc1cccc(C(c2nnnn2C2CCCCC2)N2CCC(n3c(=O)[nH]c4ccccc43)CC2)c1OC (configuration not stated),inactive: 0.5%
7,CC(=O)N(c1ccccc1)C1CCNCC1,inactive: -0.3%
8,CN1CCC(Nc2ccc(Cl)cc2)CC1,inactive: -3.6%
9,CCC(CO)(C(=O)OC1CN2CCC1CC2)c1ccccc1 (configuration not stated),inactive: -0.8%
10,COc1cc(OC)cc(C(=O)NCC2(N3CCOCC3)CCCCC2)c1,inactive: 0.2%
11,COc1cccc(C(c2nnnn2C2CCCC2)N2CCC(n3c(=O)[nH]c4ccccc43)CC2)c1OC (configuration not stated),inactive: -0.1%
12,COc1cccc(C(=O)N(c2cc(C)cc(C)c2)C2CCN(C(=O)OC(C)(C)C)CC2)c1,inactive: -2.8%
13,O=c1[nH]c2ccccc2n1C1CCN(C(c2cc3ccccc3o2)c2nnnn2C2CCCC2)CC1 (configuration not stated),inactive: -0.8%
14,CCCOc1ccc(C(=O)NCC2(N(C)C)CCCCC2)cc1,inactive: 0.1%
15,O=C(O)C1(Nc2ccccc2)CCN(Cc2ccccc2)CC1,inactive: -0.4%
16,NN(c1ccccc1)C1CCN(CCc2ccccc2)CC1,inactive: -0.1%
17,CC(C)(C)OC(=O)N1CCC(Nc2ccccc2)CC1,inactive: 1.1%
18,CN1CCC(Nc2ccc(F)c(Cl)c2)CC1,inactive: 0.9%
19,CCOc1ncccc1C(=O)NCC1(N2CCOCC2)CCCCC1,inactive: -1.8%
